A mixed list of measured activities; the numbers were collected in NIAID ChemDB.

Common to all: enzyme or target tests; agent: HIV-1; target: Reverse transcriptase

Fold resistance has wild type as its base. Lines come from different laboratories, so protocols vary. ICn: concentration for n% inhibition. Two numbers with a dash give a range or band. Blank or dashed fields: not listed here.

| SMILES | measure | strain or isolate | read by | changes | result |
|---|---|---|---|---|---|
| CC(C)(C)c1ccc(-n2nnnc2SCC(=O)Nc2ccc(C#CCN3CCCC3)cc2Cl)c(Cl)c1 | IC50 | - | PicoGreen / fluorescence | RT-K103 Y181C | <1 µM |
| CCN1c2ncc(CCOc3ccc(/C=C(\C)C(=O)O)c4ccccc34)cc2C(=O)N(C)c2cccnc21 | fold resistance | - | nucleotide incorporation / radiometric | RT-K103N Y181C | 1–10 |
| CC(C)(C)c1ccc(-n2nnnc2SCC(=O)Nc2ccc(-c3ccc(/C=C/C(=O)O)cc3)cc2Cl)c(Cl)c1 | IC50 | WT | PicoGreen / fluorescence | - | <1 µM |
| CCN1c2ncc(CCOc3ccc(/C=C/C(=O)O)c4ccccc34)cc2C(=O)Nc2c(C)ccnc21 | fold resistance | - | nucleotide incorporation / radiometric | RT-V106A | 1–10 |
| O=C(CSc1nnnn1-c1cc(C(F)(F)F)ccc1Cl)Nc1ccc(-c2ccc(OCCN3CCCCC3)cc2)cc1Cl | IC50 | WT | PicoGreen / fluorescence | - | <1 µM |
| CCN1c2ncc(CCOc3ccc(-c4ccc(N)c(C(=O)O)c4)cc3C)cc2C(=O)N(C)c2cccnc21 | fold resistance | IIIB | nucleotide incorporation / radiometric | RT-K103N Y181C | 1 |
| CCN1c2ncc(CCOc3ccc(NC(=O)CCC(=O)O)c4ccccc34)cc2C(=O)N(C)c2cccnc21 | fold resistance | - | nucleotide incorporation / radiometric | RT-V106A | >10 |
| CCN1c2ncc(CCOc3ccc(-c4ccc(C)[n+]([O-])c4C)cc3C)cc2C(=O)N(C)c2cccnc21 | fold resistance | IIIB | nucleotide incorporation / radiometric | RT-K103N Y181C | 1 |
| CCN1c2ncc(CCOc3ccc(CC(C)C(=O)O)c4ccccc34)cc2C(=O)Nc2c(C)ccnc21 | fold resistance | - | nucleotide incorporation / radiometric | RT-K103N Y181C | >10 |
| CC(C)(C#Cc1ccc(NC(=O)CSc2nnnn2-c2cc(C(C)(C)C)ccc2Cl)c(Cl)c1)NC(=O)CN1CCC(C(=O)O)CC1 | IC50 | WT | PicoGreen / fluorescence | - | <1 µM |
| CCN1c2ncc(CCOc3ccc(S(=O)(=O)NCC(=O)O)c4ccccc34)cc2C(=O)N(C)c2cccnc21 | fold resistance | - | nucleotide incorporation / radiometric | RT-V106A | 1–10 |
| CCN1c2ncc(CCOc3ccc(C(=O)c4ccc(C(=O)O)cc4)cc3C)cc2C(=O)N(C)c2cccnc21 | fold resistance | IIIB | nucleotide incorporation / radiometric | RT-K103N Y181C | >1 |
| CCNC(=O)c1ccc(NC(=O)CSc2nnnn2-c2ccc(C)cc2Cl)c(Cl)c1 | IC50 | - | PicoGreen / fluorescence | RT-K103 Y181C | <1 µM |
| CCc1cc(CCc2nc3ccccc3o2)c(=O)[nH]c1C | fold resistance | - | nucleotide incorporation | RT-Y181S | 153 |
| CCN1c2ncc(CCOc3ccc(C(=O)Nc4cccc(CC(=O)O)c4)cc3C)cc2C(=O)N(C)c2cccnc21 | fold resistance | IIIB | nucleotide incorporation / radiometric | RT-K103N Y181C | 1 |

Repeating the final 2 entries:

SMILES,measure,strain or isolate,read by,changes,result
CCc1cc(CCc2nc3ccccc3o2)c(=O)[nH]c1C,fold resistance,-,nucleotide incorporation,RT-Y181S,153
CCN1c2ncc(CCOc3ccc(C(=O)Nc4cccc(CC(=O)O)c4)cc3C)cc2C(=O)N(C)c2cccnc21,fold resistance,IIIB,nucleotide incorporation / radiometric,RT-K103N Y181C,1